The values that follow come from patent publication US11696914B1 (priority 2019, dated 2023).

What all share (type): cell-based
Conditions in all cases: ratio CC50 / IC50

Data set [1] relates to Ebola virus/H.sapiens-tc/GIN/2014/Makona-005 (EBOV/Mak).
The test system of data set [2] is Ebola virus/H.sapiens-tc/COD/1976/Yambuku-Mayinga (EBOV/May).
Data set [3] deals with Marburg virus/H.sapiens-tc/KEN/1980/Mt. Elgon-Musoke (MARV/Mus).

Take `COc1ccc2nc3cc(Cl)ccc3c(Nc3cc(CN4CCCC4)c(O)c(CN4CCCC4)c3)c2n1` [Pyronaridine, 4-[(7-Chloro-2-methoxybenzo[b][1,5]naph-thyridin-10-yl)amino]-2,6-bis(1-pyrrolidinylmethyl)phenol phosphate (1:4)]: the SI in data set [1] was found to be 5.0; in data set [2] it was 4.1; in data set [3] it was 4.1.
As for `CCN(CC)CCCC(C)Nc1c2ccc(Cl)cc2nc2ccc(OC)cc12` (stereo not drawn) [Quinacrine], the SI is 8.2 in data set [1], 5.8 in data set [2] and 5.5 in data set [3].
The like results for `CCN(CC)CCOc1ccc2c(c1)C(=O)c1cc(OCCN(CC)CC)ccc1-2` [Tilorone] were, in that order, 15.9, 15.0 and 8.8.
